## Sequence variants of PSTVd stem 3 after infection

The pool varies stem 3 of the PSTVd intermediate strain in the pattern GUGGUUCCGNANNCNN; wild type is GUGGUUCCGGAACCGC (upper and lower strand joined, each 5' to 3', the first 8 letters being the upper strand).

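Three N. benthamiana plants were inoculated with the whole mutant pool. Progeny were sequenced from the inoculated region (day 5), the margin of the inoculated leaf (day 10) and systemic leaves (day 12).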

Values are reads per thousand in the sample; higher means more abundant, 0 means not found.
Each site shows the three plants.
"Pool" is the share in the plasmid pool used as inoculum, on the same scale.
The inoculated region was read from the minus strand, the other sites from the plus strand.
Samples held 27,691 to 54,225 reads, so the smallest values rest on one or two reads.
Sequences that differ at fixed positions probably stem from PCR or sequencing errors, and defective variants can be carried along by functional ones.
Wild type was 17.3 per thousand in the pool and the most common sequence in every sample (inoculated region 330, 345, 235; leaf margin 794, 766, 816; systemic leaves 830, 792, 869).

sequence,pool,inoculated region,leaf margin,systemic leaves
GGGGUUCCGGAUCCGC,0.0154,0 / 0 / 0,0 / 0 / 0,0.0186 / 0 / 0
GUGGGUCCGUAGUCGU,0.0154,0 / 0 / 0.0270,0 / 0 / 0,0 / 0 / 0.0243
GUGGGUCCGUAGUCUG,0.0308,0 / 0 / 0,0 / 0 / 0,0 / 0 / 0
GUGGUUCCGAAAACCU,0.862,0.826 / 0.668 / 0.594,0 / 0.0318 / 0.0361,0.0186 / 0 / 0
GUGGUUCCGAAAACGG,0.831,0.267 / 0.431 / 0.189,0 / 0 / 0,0 / 0 / 0
GUGGUUCCGAACCCGC,0.754,0.613 / 0.280 / 0.189,0 / 0 / 0,0 / 0 / 0
GUGGUUCCGAAGACAG,1.06,1.41 / 0.927 / 1.51,3.09 / 1.43 / 0.578,2.22 / 2.62 / 1.73
GUGGUUCCGAAUACCU,0.769,0.746 / 0.561 / 1.05,0 / 0.0318 / 0.289,0.0559 / 0 / 0
GUGGUUCCGAAUCCGG,0.646,0.826 / 0.884 / 0.757,0.113 / 0 / 0.289,0 / 0 / 0
GUGGUUCCGAAUUCGA,0.816,1.07 / 0.582 / 0.567,0 / 0 / 0.433,0 / 0 / 0
GUGGUUCCGCAAACAC,0.831,0.347 / 0.431 / 0.378,0 / 0.0636 / 0.0361,0 / 0 / 0
GUGGUUCCGCAAACCU,0.893,0.400 / 0.151 / 0.162,0 / 0.0318 / 0.0361,0 / 0 / 0
GUGGUUCCGCAAACGU,0.723,0.347 / 0.280 / 0.297,0 / 0 / 0.0361,0 / 0 / 0
GUGGUUCCGCAAGCCA,0.769,0.560 / 0.280 / 0.324,0.0283 / 0 / 0,0 / 0 / 0
GUGGUUCCGCAAUCAA,1.69,0.773 / 0.798 / 0.730,0.0283 / 0 / 0,0.335 / 0 / 0
GUGGUUCCGCAAUCCA,0.877,0.187 / 0.367 / 0.270,0 / 0.0318 / 0,0 / 0 / 0
GUGGUUCCGCACACAU,0.908,0.693 / 0.863 / 0.784,0 / 0.0318 / 0.0361,0 / 0 / 0
GUGGUUCCGCACACCU,1.15,0.533 / 0.518 / 0.324,0.0283 / 0 / 0,0 / 0 / 0
GUGGUUCCGCACACGA,0.800,0.373 / 0.453 / 0.243,0 / 0.0954 / 0,0 / 0 / 0
GUGGUUCCGCACGCCA,0.693,0.267 / 0.302 / 0.108,0 / 0 / 0.0361,0 / 0 / 0
GUGGUUCCGCACGCCC,0.970,0.293 / 0.367 / 0.486,0 / 0 / 0.108,0 / 0 / 0
GUGGUUCCGCACUCAU,0.862,0.826 / 0.992 / 1.11,0.255 / 1.05 / 0.939,0 / 0 / 0
GUGGUUCCGCACUCGU,1.46,1.04 / 0.927 / 0.973,0 / 0 / 0.0361,0.0746 / 0 / 0
GUGGUUCCGCAGACAG,0.785,0.773 / 0.647 / 0.513,0 / 0 / 0.433,0 / 0 / 0
GUGGUUCCGCAGACUG,0.908,0.240 / 0.388 / 0.216,0 / 0 / 0.0361,0.0186 / 0 / 0
GUGGUUCCGCAGCCAG,0.631,0.586 / 0.604 / 1.05,0.0283 / 0 / 0.289,0 / 0 / 0
GUGGUUCCGCAGGCGU,1.12,0.533 / 0.712 / 0.811,0.0283 / 0 / 0,0 / 0 / 0
GUGGUUCCGCAUGCUA,0.970,0.267 / 0.259 / 0.162,0 / 0 / 0,0 / 0 / 0
GUGGUUCCGGAACCGC,17.3,330 / 345 / 235,794 / 766 / 816,830 / 792 / 869
GUGGUUCCGGAACGGC,0.0154,0.0800 / 0.0431 / 0.0811,0.170 / 0.191 / 0.144,0.205 / 0.0922 / 0.219
GUGGUUCCGGAAGCGC,0.954,5.17 / 13.3 / 13.9,8.33 / 33.9 / 18.7,13.4 / 17.1 / 23.7
GUGGUUCCGGACGCAU,0.585,0.933 / 0.884 / 0.513,0 / 0 / 0.542,0 / 0 / 0
GUGGUUCCGGACGCUA,0.985,0.213 / 0.216 / 0.270,0 / 0 / 0,0 / 0 / 0
GUGGUUCCGGAGGCGA,0.662,0.453 / 0.302 / 0.270,0 / 0 / 0,0 / 0 / 0
GUGGUUCCGGAUCCUA,1.54,0.800 / 1.25 / 0.676,0 / 0 / 0.0361,0.168 / 0 / 0
GUGGUUCCGGAUGCGG,2.26,1.09 / 1.08 / 0.919,0.538 / 0 / 0.0361,0.0186 / 0 / 0
GUGGUUCCGGGACCGC,0.185,0.293 / 0.259 / 0.270,0.170 / 0.414 / 0.144,0.317 / 0.314 / 0.268
GUGGUUCCGUAAGCCG,0.723,0.267 / 0.388 / 0.270,0 / 0.0318 / 0,0.112 / 0.0369 / 0.0486
GUGGUUCCGUAAUCUG,0.769,0.373 / 0.280 / 0.270,0 / 0 / 0.144,0 / 0 / 0
GUGGUUCCGUACCCCG,1.23,0.693 / 0.539 / 0.432,0.0283 / 0 / 0,0 / 0 / 0
GUGGUUCCGUACGCCA,1.05,0.373 / 0.367 / 0.351,0 / 0 / 0,0 / 0 / 0
GUGGUUCCGUACGCGU,0.954,0.347 / 0.453 / 0.243,0 / 0.0636 / 0.0361,0.0932 / 0 / 0
GUGGUUCCGUAGACAC,0.769,0.880 / 0.970 / 0.622,0 / 0.0636 / 0.361,0 / 0 / 0
GUGGUUCCGUAGGCAG,0.831,0.560 / 0.625 / 1.03,0 / 0.0318 / 0,0 / 0 / 0
GUGGUUCCGUAGUCCU,0.893,0.773 / 0.604 / 0.811,0 / 0.986 / 0.361,0 / 0.0184 / 0
GUGGUUCCGUAUCCCA,0.877,0.240 / 0.453 / 0.270,0 / 0.0318 / 0.0361,0 / 0 / 0
GUGGUUCCGUAUGCAC,0.877,0.320 / 0.431 / 0.270,0 / 0.0318 / 0.0361,0 / 0 / 0
GUGGUUCCGUAUUCAC,1.77,1.49 / 1.06 / 1.89,0.0567 / 0 / 0.0361,0.149 / 0.148 / 0.0486
GUGGUUCGGUAUUCGU,0.0154,0 / 0 / 0,0 / 0 / 0,0 / 0 / 0
UUGGUUCCGUACGCUG,0.0154,0 / 0 / 0,0 / 0 / 0,0 / 0 / 0

Values reported by Wu et al. 2024 (doi:10.1371/journal.ppat.1012142).